## Kdimer by position in the HIV-1 leader RNA

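Randomly mutated transcripts starting with one, two or three G (1G, 2G, 3G), capped or uncapped, were folded for 30 min at 37 °C. High salt was 300 mM KCl and 5 mM MgCl2, low salt 40 mM KCl and 0.1 mM MgCl2; monomer and dimer were parted on a native gel. Mutation frequencies in the two bands give Kdimer.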

RNA: 5' end of the HIV-1 NL4-3 genome, made in vitro. Positions 1-437 read:
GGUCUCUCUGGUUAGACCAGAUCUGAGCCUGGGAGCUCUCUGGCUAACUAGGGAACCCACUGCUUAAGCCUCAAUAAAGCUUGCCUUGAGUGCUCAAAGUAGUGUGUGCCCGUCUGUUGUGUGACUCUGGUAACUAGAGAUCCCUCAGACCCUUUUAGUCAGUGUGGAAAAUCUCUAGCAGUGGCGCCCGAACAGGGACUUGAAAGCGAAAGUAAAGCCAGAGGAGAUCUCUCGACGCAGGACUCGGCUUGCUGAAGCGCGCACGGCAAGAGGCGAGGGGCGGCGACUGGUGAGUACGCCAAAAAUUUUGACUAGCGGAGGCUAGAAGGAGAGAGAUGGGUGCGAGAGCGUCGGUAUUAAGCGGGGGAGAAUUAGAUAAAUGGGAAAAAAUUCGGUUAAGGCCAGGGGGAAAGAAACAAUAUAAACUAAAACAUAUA

Scale: median log2 Kdimer over the changes at a position; positive = changes inhibit dimerization, negative = changes enhance it.
One numbering serves 1G, 2G and 3G.
A position is written with its base.

position	domain	3G capped high-salt	3G capped low-salt	3G uncapped high-salt	3G uncapped low-salt
G315	SL3	0.17	0.62	0.28	0.50
C316	SL3	0.06	0.63	0.07	0.80
G317	SL3	0.04	0.20	0.15	0.19
G318	SL3	0.10	-0.14	0.03	-0.12
A319	SL3	0.09	0.21	0.07	0.21
G320	SL3	-0.08	-0.21	-0.02	-0.12
G321	SL3	0.37	1.15	0.43	0.85
C322	SL3	0.22	0.70	0.34	0.75
U323	SL3	0.26	-0.04	0.64	0.47
A324	SL3	0.48	0.79	0.43	0.80
G325	SL3	0.44	0.89	0.41	0.75
A326	none	0.06	-0.03	-0.01	-0.05
A327	none	0.08	0.10	0.06	0.22
G328	none	0.06	-0.09	-0.02	-0.17
G329	none	0.22	0.16	0.28	0.17
A330	none	0.15	0.42	0.15	0.40
G331	none	-0.22	0.09	0.19	0.11
A332	none	0.35	0.59	0.06	0.56
G333	AUG	-0.02	-0.19	-0.08	-0.28
A334	AUG	0.02	0.77	0.23	0.64
G335	AUG	0.06	0.85	-0.04	1.11
A336	AUG	0.14	0.64	0.00	0.79
U337	AUG	0.11	0.06	0.22	0.97
G338	AUG	0.04	0.66	0.21	1.00
G339	AUG	0.14	0.95	0.17	1.01
G340	AUG	0.15	0.87	0.04	0.81
U341	AUG	0.17	0.65	0.18	0.90
G342	AUG	0.17	0.44	0.30	0.25
C343	AUG	0.13	0.59	0.06	0.62
G344	AUG	-0.01	-0.33	0.02	-0.23
A345	none	0.14	0.08	0.25	0.03
G346	none	0.03	0.61	0.14	0.61
A347	none	0.53	0.39	0.51	0.53
G348	none	-0.29	0.26	-0.33	0.26
C349	none	-0.18	0.06	-0.12	0.25
G350	none	0.00	0.34	-0.03	0.23
U351	none	0.16	0.10	0.09	0.03
C352	none	-0.10	-0.14	0.11	-0.14
G353	none	0.07	0.59	0.00	0.56
G354	none	-0.07	-0.25	-0.10	-0.11
U355	none	0.10	0.11	0.07	-0.19
A356	none	0.11	-0.11	0.01	-0.06
U357	none	0.02	-0.07	0.03	-0.11
U358	none	-0.04	-0.13	0.06	-0.11
A359	none	0.05	-0.03	0.09	0.25
A360	none	-0.08	0.02	0.04	0.16

Extract of 3 entries:

{"position": "C349", "domain": "none", "3G capped high-salt": -0.18, "3G capped low-salt": 0.06, "3G uncapped high-salt": -0.12, "3G uncapped low-salt": 0.25}
{"position": "U357", "domain": "none", "3G capped high-salt": 0.02, "3G capped low-salt": -0.07, "3G uncapped high-salt": 0.03, "3G uncapped low-salt": -0.11}
{"position": "G317", "domain": "SL3", "3G capped high-salt": 0.04, "3G capped low-salt": 0.20, "3G uncapped high-salt": 0.15, "3G uncapped low-salt": 0.19}

The measurements come from Ye et al. 2022 (doi:10.1038/s41594-022-00746-2).